PubChem BioAssay AID1259414, Drosophila RNAi Screening Center – 2018

Screen: 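Fly genes that alter Wolbachia amount inside host cells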 (primary screen)
Cell system: Drosophila JW18 cells infected with Wolbachia
Reagents: long dsRNA against Drosophila genes, 0.25 µg dsRNA per well of a 384-well plate
Timing: 5 days
Conditions: cells persistently infected with Wolbachia before knock-down; no added drug
Detection: 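Automated imaging of bacterial rRNA staining divided by host cell count, reported as plate-normalised robust z-score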
Scale: Wolbachia per cell robust z: higher = more Wolbachia per host cell than the plate typical
Active means: 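Hit when robust z is 1.5 or more, or -1.5 or less, in at least two of three replicates; excludes dsRNAs with several or no targets, genes not expressed in JW18 and well A1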
The screen tested about 24,000 reagents; below is an unselected part of those that have a named target and a result. In the full data, about 1,210 (5%) got an active call. 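Inactive calls also include excluded dsRNAs with several or no targets, genes unexpressed in JW18, and well A1, regardless of score.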 Names joined by + are all predicted targets of the reagent. No sequences are given here.

no.	target	amplicon	Wolbachia per cell robust z, rep 1	Wolbachia per cell robust z, rep 2	Wolbachia per cell robust z, rep 3	Outcome
1	Sfxn1-3	DRSC12183	1.18	1.05	-5.85	inactive
2	halo	DRSC00705	-8.52	-1.24	0.981	inactive
3	halo	DRSC27447	0.484	-0.453	-0.319	inactive
4	Spt	DRSC07123	-0.0309	-0.276	0.476	inactive
5	Spt	DRSC29487	0.0129	-0.203	-0.277	inactive
6	CG2694	DRSC18470	-0.271	0.305	-7.52	inactive
7	Takl2	DRSC15650	0.158	0.707	1.33	inactive
8	CG17198 + CG17197	DRSC15190	-3.96	-1.86	0.632	inactive
9	CG2852	DRSC04321	-2.06	0.00163	-0.626	inactive
10	CG2852	DRSC27956	-0.0657	0.502	-0.693	inactive
11	CG5556	DRSC00687	0.289	1.1	0.177	inactive
12	CG43322	DRSC02280	-3.34	-0.304	-0.314	inactive
13	CG43322	DRSC27089	-0.0762	-0.34	-0.31	inactive
14	sxe2	DRSC15692	-0.364	-0.0559	0.457	inactive
15	CG8420	DRSC16418	1.19	1.16	-0.0837	inactive
16	Acsx1L	DRSC16014	-1.67	0.455	0.474	inactive
17	Acsx1L	DRSC25334	-1.21	0.622	-0.407	inactive
18	Cyp309a1	DRSC00747	0.259	-0.115	1.03	inactive
19	tzn	DRSC11755	0.907	-0.107	-0.0564	inactive
20	CG8646	DRSC07230	-0.241	0.373	0.0563	inactive
21	jub	DRSC19367	0.5	1.82	0.722	inactive
22	jub	DRSC26225	0.848	-0.0337	0.205	inactive
23	Dcr-1	DRSC15646	0.000478	-0.772	-0.427	inactive
24	Dcr-1	DRSC27421	0.767	0.0862	0.497	inactive
25	CG18233	DRSC10308	0.97	-1.27	1.02	inactive
26	Jon65Aiii	DRSC10649	-0.358	1.29	0.274	inactive
27	Jon65Aiii	DRSC25428	-0.249	0.182	0.875	inactive
28	vih	DRSC09778	1.45	0.511	2.54	inactive
29	vih	DRSC23625	0.853	1.09	2.27	inactive
30	dind	DRSC16294	-0.317	-0.228	0.739	inactive
31	dind	DRSC27615	-0.556	-1.02	-2.31	inactive
32	CG31286	DRSC26727	0.62	-0.444	-0.724	inactive
33	amn + Hers	DRSC20306	-1.11	-0.333	-0.531	inactive
34	CG12535	DRSC17838	-0.0539	-0.0364	0.0287	inactive
35	CG30385	DRSC06031	-0.867	1.69	-2.5	inactive
36	CG3857	DRSC18542	0.515	-6.37	-0.718	inactive
37	prom	DRSC04684	0.375	0.781	0.315	inactive
38	prom	DRSC21463	-0.293	-0.14	-0.266	inactive
39	prom	DRSC22088	0.0464	0.659	-0.869	inactive
40	prom	DRSC24876	1.72	0.0796	0.386	inactive
41	prom	DRSC26828	0.326	0.445	-0.135	inactive
42	prom	DRSC27557	0.377	-2.6	-0.0847	inactive
43	CG34276	DRSC15811	0.709	0.555	-0.428	inactive
44	Ythdf	DRSC16036	1.03	0.457	-0.448	inactive
45	Ythdf	DRSC16037	0.879	-2.76	-0.449	inactive
46	dpr14	DRSC17767	0.0464	-0.539	-0.314	inactive
47	dpr14	DRSC26488	-0.166	0.586	0.468	inactive
48	CG6484	DRSC06991	-1.37	-2.17	0.919	inactive
49	CG6484	DRSC28087	-0.453	-0.666	0.27	inactive
50	NUCB1	DRSC22137	0.0527	-0.972	-0.467	inactive
51	NUCB1	DRSC29109	0.566	-0.0274	0.262	inactive
52	Fign	DRSC00592	-0.923	0.0971	-0.541	inactive
53	CG18178	DRSC10302	-0.406	0.632	-0.377	inactive
54	Fbw5	DRSC03146	0.0371	-0.679	-0.0116	inactive
55	Fbw5	DRSC29431	-1.09	-4.34	0.775	inactive
56	Ir62a	DRSC08250	-0.582	0.858	0.637	inactive
57	UbcE2H	DRSC18221	-2.23	-7.28	-6.08	inactive
58	UbcE2H	DRSC27123	-0.971	-0.607	-0.839	inactive
59	CG15390	DRSC00404	0.295	-4.6	-1.19	inactive
60	CG7691	DRSC16287	-1.29	-4.83	-0.322	inactive
61	onecut	DRSC17175	0.472	0.576	0.636	inactive
62	onecut	DRSC26072	-0.802	-1.11	0.151	inactive
63	CG12134	DRSC06109	0.762	-0.297	0.843	inactive
64	CG12134	DRSC24332	-0.516	0.0302	-0.543	inactive
65	CG2267	DRSC15435	-3.21	0.202	0.0538	inactive
66	spict	DRSC02157	-1.79	-11.2	-0.47	active
67	spict	DRSC28072	-0.306	0.897	0.0444	inactive
68	spict	DRSC39020	-0.0338	-3.23	-1.42	inactive
69	e(y)2	DRSC19640	-0.172	-0.444	-2.69	inactive
70	htl	DRSC16968	0.318	-0.399	0.413	inactive
71	htl	DRSC36668	-0.4	1.26	1.23	inactive
72	htl	DRSC40656	-0.344	0.263	-0.0198	inactive
73	CG13561	DRSC04199	0.108	0.838	0.915	inactive
74	Grik	DRSC15846	0.339	-0.137	0.598	inactive
75	Grik	DRSC15847	0.259	0.369	0.72	inactive
76	Grik	DRSC26067	1.1	1.13	0.623	inactive
77	Ddrgk1	DRSC15897	0.0747	-0.336	-4.68	inactive
78	Ddrgk1	DRSC27688	-0.719	-0.764	-0.659	inactive
79	CG12818	DRSC14556	0.669	0.498	0.213	inactive
80	Ca-beta	DRSC02406	-3.78	-1.22	-0.24	inactive
81	Ca-beta	DRSC02407	-0.21	-0.812	0.299	inactive
82	Ca-beta	DRSC03285	-1	-0.848	-0.521	inactive
83	Ca-beta	DRSC21432	0.501	0.457	-0.0556	inactive
84	Ca-beta	DRSC23813	1.02	0.941	0.978	inactive
85	Ca-beta	DRSC38975	1.16	-5.02	0.732	inactive
86	Camta	DRSC07272	-1.2	0.237	0.0408	inactive
87	Camta	DRSC23081	-0.206	-0.156	0.0127	inactive
88	Camta	DRSC23156	0.314	-4.28	0.659	inactive
89	Camta	DRSC26757	0.574	0.928	0.471	inactive
90	Camta	DRSC27929	-0.809	-0.629	0.327	inactive

Called active (from the list above):
target	amplicon	Wolbachia per cell robust z, rep 1	Wolbachia per cell robust z, rep 2	Wolbachia per cell robust z, rep 3	Outcome
spict	DRSC02157	-1.79	-11.2	-0.47	active
